Measured values from several laboratories, pooled; numbers as filed in NIAID ChemDB.

Common to all: growth or infection tests; species: Mycobacterium tuberculosis

Inhibition is in % at the dose shown (toxicity tests: loss of growth or viability).

smiles	strain or isolate	changes	read by	setting	endpoint	tested at	result
COc1ccc(/C(C)=N/NC(=O)c2ccncc2)cc1OC	6 PI				MIC		>20 µg/mL
COC1=C2CC(C)CC(OC)C(O)C(C)/C=C(\C)C(OC(N)=O)C(OC)/C=C\C=C(/C)C(=O)NC(=C(C=NN(C)C)C1=O)C2=O	H37Rv		BACTEC		MIC bound		>12.5 µg/mL
NNC(=O)c1ccncc1	22 strains (rifampin- isoniazid-resistant)				MIC50		12.5 µg/mL
CCOC(=O)C(CC(C)C)NC(=O)c1cc([N+](=O)[O-])c(C)c2c1Nc1c(c(C)c3oc(=O)c(C)nc3c1C(=O)NC(CC(C)C)C(=O)OCC)O2	H37Rv		BACTEC		inhibition	12.5 µg/mL	9%
NCCCN1c2ccccc2Sc2ccccc21	MDR-6233		resazurin		MIC		2 µg/mL
COc1cccc(/C=C/C(=O)c2ccc(F)cc2)c1F	H37Rv		MTT	7 d	MIC		32 µg/mL
Nc1ccc(C(=O)/C=C/c2cccnc2N)cc1	H37Rv				EC50		>12.5 µg/mL
CN[C@@H]1[C@H](O)[C@H](NC)[C@H]2O[C@@]3(O)C(=O)C[C@@H](C)O[C@H]3O[C@@H]2[C@H]1O	H37Rv		BACTEC		MIC bound		>12.8 µg/mL
CC(=O)Oc1ccccc1C(=O)Nc1ncc([N+](=O)[O-])s1	LAM spoligotype 42		visual reading		MIC		16 µg/mL
COc1ccc(C(=O)/C=C/c2ccc(F)cc2)c(F)c1	H37Rv		resazurin	7 d	MIC		32 µg/mL
O=C1NC(CCCl)C(=O)NC1CCCl	H37Rv		BACTEC		inhibition	12.5 µg/mL	9%
CCCCCCOc1ccc(NC(=O)OCCN2CCCCC2)cc1	My 331/88				MIC		32 µM
C/C(=N\NC(=O)c1ccncc1)c1ccc(Cl)cc1Cl	H37Rv				MIC		>20 µg/mL
CCCCCOc1ccccc1NC(=O)OCCN1CCOCC1	My 331/88				MIC		125 µM
COc1ccc2c(=O)n(-c3ccccc3)c(=O)oc2c1	CNCTC MY331/88				MIC		16 µM
COc1cc(=O)oc(/C=C/C=C/C=C/C(C)=C/C2(C)OC(C)C(C)(O)C2O)c1C	H37Rv		BACTEC		MIC bound		>12.8 µg/mL
N[C@@H]1CN(c2c(F)cc3c(=O)c(C(=O)O)cn([C@@H]4C[C@@H]4F)c3c2Cl)CC12CC2	22 strains (rifampin- isoniazid-resistant)				MIC90		1.56 µg/mL
O=[N+]([O-])c1cc2ncccc2c2ncccc12	INH-r				MIC		12.5 µg/mL
O=C(/C=C/c1ccccc1)c1ccccc1	H37Rv		MTT		MIC		32 µg/mL
CN[C@@H]1[C@H](O[C@H]2[C@H](O[C@H]3[C@H](O)[C@@H](O)[C@H](N=C(N)N)[C@@H](O)[C@@H]3N=C(N)N)O[C@@H](C)[C@]2(O)C=O)O[C@@H](CO)[C@H](O)[C@H]1O	Praha 131				MIC		>27.5 µM
O=c1oc2ccc(F)cc2c(=O)n1-c1cccc([N+](=O)[O-])c1	CNCTC MY331/88				MIC		31 µM
COc1ccc(C(=O)/C=C/c2ccncc2)cc1					inhibition	12.5 µg/mL	0%
O=c1oc2ccccc2c(=O)n1-c1ccc(Cl)cc1	CNCTC MY331/88				MIC		16 µM
CCCCCCCCCCOc1ccccc1NC(=O)OCC[NH+]1CCCC1	My 331/88				MIC		16 µM
CC(=O)NC[C@H]1CN(c2ccc(N3CCN(c4ccc([N+](=O)[O-])s4)CC3)c(F)c2)C(=O)O1	H37Rv				MIC		≤0.125 µg/mL
CCN(CC)CCCN=c1cc2n(-c3ccc(Cl)c(Cl)c3)c3ccccc3nc-2cc1Nc1ccc(Cl)c(Cl)c1	14			multidrug-resistant	MIC		0.12 µg/mL
CO/C(=N\N=C\c1cccc(C(C)(F)F)c1)c1ccncc1	H37Rv				MIC		>20 µg/mL
O=C(/C=C/c1c(F)cccc1Cl)c1ccc(F)cc1	H37Rv		MTT	21 d	MIC		64 µg/mL
COc1c(O)cc2oc3cc(O)c(CC=C(C)C)c(O)c3c(=O)c2c1CC=C(C)C	TAC-R				MIC		12.8 µg/mL
C[C@H]1COc2c(N3CCN(C)CC3)c(F)cc3c(=O)c(C(=O)O)cn1c23	001-005 (DRUG-SUS)				MIC		0.5 µg/mL
CC(=O)c1c(O)c(C)c(O)c2c1OC1=CC(=O)C(C(C)=O)C(=O)C12C	ETA-R				MIC		12.5 µg/mL
CCCCCOc1ccccc1NC(=O)OCC[NH+]1CCCC1	My 331/88				MIC		125 µM
CO/C(C)=C1/NC(=O)[C@H]([C@@H](C)O)NC(=O)c2csc(n2)-c2cc(O)c(-c3nc(C(=O)NCCCN4CCOCC4)cs3)nc2-c2csc(n2)[C@@H]2COC(=O)c3c4c5c(cccc5n3O)COC(=O)[C@@H](O[C@H]3C[C@](C)(O)[C@H](N(C)C)[C@H](C)O3)[C@@H](OC4)[C@H](NC(=O)c3csc1n3)c1nc(cs1)C(=O)N2	Clinical isolate 10525	Rifampicin- and isoniazid-resistant	broth dilution		MIC		≤25 µM
COc1ccc(C2Oc3cc(OC)cc(OC)c3C(=O)C2Br)cc1					inhibition	12.5 µg/mL	0%
O=C(/C=C/c1ccccc1Cl)c1ccc(F)cc1	H37Rv		MTT		MIC		32 µg/mL
NNC(=O)c1ccncc1	Clinical isolate 18343	Isoniazid- and moxifloxacin-resistant	broth dilution		MIC		>10 µM
CO[C@H]1/C=C/O[C@@]2(C)Oc3c(C)c(O)c4c(O)c(c(/C=N/N5CCN(C)CC5)c(O)c4c3C2=O)NC(=O)/C(C)=C\C=C\[C@H](C)[C@H](O)[C@@H](C)[C@@H](O)[C@@H](C)[C@H](OC(C)=O)[C@@H]1C	234/2005				MIC		>9.7 µM
C/C=[N+](\NC(=O)CCCC(=O)N/[N+](=C\C)C1(O)Cc2c(O)c3c(c(O)c2C(OC2CC(N)C(O)C(C)O2)C1)C(=O)c1c(OC)cccc1C3=O)C1(O)Cc2c(O)c3c(c(O)c2C(OC2CC(N)C(O)C(C)O2)C1)C(=O)c1c(OC)cccc1C3=O	H37Rv		BACTEC		inhibition	12.5 µg/mL	75%
O=C(/C=C/c1ccc(F)cc1Cl)c1ccc(F)cc1	H37Rv		resazurin	14 d	MIC		32 µg/mL
COc1ccc2cc([N+](=O)[O-])c3ccc(=O)oc3c2c1	H37Rv		resazurin		MIC		25 µg/mL
O=C(O)c1cccnn1	H37Rv		BACTEC		MIC bound		>12.5 µg/mL
COc1ccc(Br)c2c1C(=O)CC(c1ccccc1)O2	H37Rv				EC50		<12.5 µg/mL
NC(=O)c1cnccn1	TMC311				MIC		>6400 µg/mL
COc1ccccc1NC(=O)OCC[NH+]1CCCC1	My 331/88				MIC		>1000 µM
CO[C@H]1/C=C/O[C@@]2(C)Oc3c(C)c(O)c4c(O)c(c(/C=N/N5CCN(C6CCCC6)CC5)c(O)c4c3C2=O)NC(=O)/C(C)=C\C=C\[C@H](C)[C@H](O)[C@@H](C)[C@@H](O)[C@@H](C)[C@H](O)[C@@H]1C	Isolate 920492 rifampicin-resistant				MIC		>64 µg/mL
CC(=O)OC1C(=O)OCC23CCC4(C)OC4C2OC2CC(OC(=O)/C=C\C=C\C(=O)OCCC1C)C3(C)C13CC21O3	H37Rv		BACTEC		MIC		≥12.5 µg/mL
CO[C@H]1/C=C/O[C@@]2(C)Oc3c(C)c(O)c4c(=O)c(c5oc6cc(N7CCN(CC(C)C)CC7)cc(=O)c6nc5c4c3=C2O)NC(=O)/C(C)=C\C=C\[C@H](C)[C@H](O)[C@@H](C)[C@@H](O)[C@@H](C)[C@H](OC(C)=O)[C@@H]1C	H37RV-PLN-2				MIC		≤0.015 µg/mL
NNC(=O)c1ccncc1	Strain 370				MIC		0.06 µg/mL
COc1ccc(C(=O)/C=C/c2ccc(F)cc2Cl)cc1	H37Rv		MTT		MIC		32 µg/mL
CCOc1cccc(NC(=O)OCCN2CCCCC2)c1	My 331/88				MIC		500 µM
CC[C@H]1OC(=O)[C@H](C)[C@@H](O[C@H]2C[C@@](C)(OC)[C@@H](O)[C@H](C)O2)[C@H](C)[C@@H](O[C@@H]2O[C@H](C)C[C@H](N(C)C)[C@H]2O)[C@](C)(OC)C[C@@H](C)C(=O)[C@H](C)[C@@H](O)[C@]1(C)O	27 strains (levofloxacin-susceptible)				MIC90		50 µg/mL
C=C(NC(=O)c1csc(-c2nc3c(cc2O)-c2nc(cs2)C(=O)N[C@@H]([C@@H](C)O)C(=O)N/C(=C(\C)OC)c2nc(cs2)C(=O)N[C@@H]2c4nc(cs4)C(=O)N[C@@H](COC(=O)c4c5c6c(cccc6n4O)COC(=O)[C@@H](O[C@H]4C[C@](C)(O)[C@H](N(C)C)[C@H](C)O4)[C@H]2OC5)c2nc-3cs2)n1)C(N)=O	Clinical isolate 9139	Isoniazid-resistant	broth dilution		MIC		<2.5 µM
C=C(C)/C=C/[C@]12C[C@H](C)[C@H]3CC[C@](C)(N)[C@@H](CC[C@H]1C)[C@@H]32	H37Rv				inhibition	16 µg/mL	100%
CO[C@H]1/C=C/O[C@@]2(C)Oc3c(C)c(O)c4c(O)c(c(/C=N/N5CCN(C)CC5)c(O)c4c3C2=O)NC(=O)/C(C)=C\C=C\[C@H](C)[C@H](O)[C@@H](C)[C@@H](O)[C@@H](C)[C@H](OC(C)=O)[C@@H]1C	Clinical isolate 16116		broth dilution		MIC		≤0.1 µM
COc1ccc(CCNc2ccc(NCCc3ccc(OC)c(OC)c3)c3c2C(=O)c2ccccc2C3=O)cc1OC	H37Rv		BACTEC		inhibition	12.5 µg/mL	-25%
COc1ccccc1NC(=O)OCCN1CCCCC1	My 331/88				MIC		>1000 µM
CC(=O)NC[C@H]1CN(c2ccc(N3CCOCC3)c(F)c2)C(=O)O1	Strain 23				MIC		0.25 µg/mL
C/C(=N\NC(=O)c1ccncc1)c1cccc(Br)c1	H37Rv				MIC		>20 µg/mL
CC1(C)COC(c2ccc(C(F)(F)F)cc2C(O)c2ccc3ccccc3c2)=N1	H37Rv		BACTEC		inhibition	12.5 µg/mL	0%
COc1nc2ccc(Br)cc2cc1[C@@H](c1ccccc1)[C@@](O)(CCN(C)C)c1cccc2ccccc12	clinical isolate MAL020148		resazurin		MIC90		0.03125 µg/mL
O=C(/C=C/c1ccccc1Cl)c1ccccc1	H37Rv		resazurin	21 d	MIC		32 µg/mL
NC1=C(Cl)C(=O)c2ccccc2C1=O	H37Rv		BACTEC		MIC		12.5 µg/mL
COc1ccc(/C=C/C(=O)c2ccc([N+](=O)[O-])cc2)cc1					EC50		<12.5 µg/mL
CC1OC(=O)c2cc3ccccc3nc21	H37Rv		BACTEC		inhibition	12.5 µg/mL	6%
Cc1ccc2c(=O)n(-c3ccc(Cl)cc3)c(=O)oc2c1	CNCTC MY331/88				MIC		62 µM
CC(C)N1CCC2(CC1)NNc1ncccc1-n1cccc12.Cl.Cl	H37Rv		BACTEC		inhibition	12.5 µg/mL	0%
CCOc1cccc(NC(=O)OCCN2CCOCC2)c1	My 331/88				MIC		>500 µM
COC(=O)C1=C2\c3cc4c(cc3CCN2C(=O)c2ccc(OC)c(OC)c2/C(OC)=C\1)OCO4	H37Rv		BACTEC		MIC		≥12.5 µg/mL
O=C(/C=C/c1cccc(O)c1)c1ccccc1O					EC50		>12.5 µg/mL
CCN(CC)c1cc2oc3cc(N)cc(=N)c-3nc2cc1C	CS-R				MIC		0.4 µg/mL
COc1cccc2c1cc1c3c(cc4c(c32)OCO4)C(=O)N1	MTY147		resazurin		MIC		12.5 µg/mL
O=C(CC(=O)C(F)(F)F)c1csc2ccccc12	H37Rv				MIC bound		>6.25 µg/mL
O=C(O)C(=O)O.OC(CNCCc1ccccc1)CN1c2ccccc2Sc2ccccc21	MDR-843		resazurin		MIC		2 µg/mL
CC(C)=CCC(OC(=O)CC(C)C)C1=CC(=O)c2c(O)ccc(O)c2C1=O	TAC-R				MIC		>12.5 µg/mL
Cc1ccc(Cn2nnc(-c3cc([N+](=O)[O-])cc([N+](=O)[O-])c3)n2)cc1	Praha 131			14 d	MIC		0.125 µM

Repeating the final 11 entries:

{"smiles": "Cc1ccc2c(=O)n(-c3ccc(Cl)cc3)c(=O)oc2c1", "strain or isolate": "CNCTC MY331/88", "endpoint": "MIC", "result": "62 µM"}
{"smiles": "CC(C)N1CCC2(CC1)NNc1ncccc1-n1cccc12.Cl.Cl", "strain or isolate": "H37Rv", "read by": "BACTEC", "endpoint": "inhibition", "tested at": "12.5 µg/mL", "result": "0%"}
{"smiles": "CCOc1cccc(NC(=O)OCCN2CCOCC2)c1", "strain or isolate": "My 331/88", "endpoint": "MIC", "result": ">500 µM"}
{"smiles": "COC(=O)C1=C2\\c3cc4c(cc3CCN2C(=O)c2ccc(OC)c(OC)c2/C(OC)=C\\1)OCO4", "strain or isolate": "H37Rv", "read by": "BACTEC", "endpoint": "MIC", "result": "≥12.5 µg/mL"}
{"smiles": "O=C(/C=C/c1cccc(O)c1)c1ccccc1O", "endpoint": "EC50", "result": ">12.5 µg/mL"}
{"smiles": "CCN(CC)c1cc2oc3cc(N)cc(=N)c-3nc2cc1C", "strain or isolate": "CS-R", "endpoint": "MIC", "result": "0.4 µg/mL"}
{"smiles": "COc1cccc2c1cc1c3c(cc4c(c32)OCO4)C(=O)N1", "strain or isolate": "MTY147", "read by": "resazurin", "endpoint": "MIC", "result": "12.5 µg/mL"}
{"smiles": "O=C(CC(=O)C(F)(F)F)c1csc2ccccc12", "strain or isolate": "H37Rv", "endpoint": "MIC bound", "result": ">6.25 µg/mL"}
{"smiles": "O=C(O)C(=O)O.OC(CNCCc1ccccc1)CN1c2ccccc2Sc2ccccc21", "strain or isolate": "MDR-843", "read by": "resazurin", "endpoint": "MIC", "result": "2 µg/mL"}
{"smiles": "CC(C)=CCC(OC(=O)CC(C)C)C1=CC(=O)c2c(O)ccc(O)c2C1=O", "strain or isolate": "TAC-R", "endpoint": "MIC", "result": ">12.5 µg/mL"}
{"smiles": "Cc1ccc(Cn2nnc(-c3cc([N+](=O)[O-])cc([N+](=O)[O-])c3)n2)cc1", "strain or isolate": "Praha 131", "setting": "14 d", "endpoint": "MIC", "result": "0.125 µM"}

Conditions beyond the fields shown may differ between rows. A number after MIC or MFC names an inhibition level or a share of isolates. MIC bound: limit read from a one-dose screen. An empty or dashed field is not shown. ECn: concentration that inhibits the pathogen or its effect by n%.